US5786168, “Method for recombinant production of antigen non-specific glycosylation inhibiting factor (GIF)” (Kirin Beer Kabushiki Kaisha, dated 1998)

Biological target: bee venom phospholipase A2 (PLA2) (honey bee, UniProt P00630)
Assay: supernatants of the 5 clones cultured without anti-CD3 treatment, PLA2-Sepharose

B1: human antigen non-specific glycosylation inhibiting factor (GIF), hybridoma-derived (other)
chain: PMFIVNTNVPRASVPDGFLSELTQQLAQATGKPPQYIAVHVVPDQLMAFGGSSEPCALCSLHSIGKIGGAQNRSYSKLLCGLLAERLRISPDRVYINYYDMNAANVGWNNSTFA
Does B1 bind?
Result: no binding
